Target: Hir complex (Hir1/Hir2/Hir3/Hpc2) (S. cerevisiae)
Assay: SPR

B1: full-length yeast Asf1 (natural protein)
chain: not shown
  Kd: 132 nM
